# Assay results reported in patent US7906119, “Antibodies against protective antigen” (Human Genome Sciences, dated 2011).
# B1: PWD0283 (IgG1 format) (antibody, V domains shown)
# VH: EVQLLESGGGLVQPGGSLRLSCAASGFTFSSYATSWVRQAPGKGLEWVSAISGSGGSTYYADSVKGRFTISRDNSKNTLYLQMNSLRAEDTAVYYCARVGGAIRFDSWGRGTLVTVSS
# VL: SYELTQPPSASETPGQRVSISCSGGTSNIGSNTINWYQQVPGTAPKLLIYFNNRRPAGVPARFSASKSGTSASLTISGLQSEDEADYYCSAWDDSLSGVVFGGGTKLTVLG
# What was measured:
# [1] = target: T1, protective antigen of Bacillus anthracis (PA83) (Bacillus anthracis); assay: BIAcore; PA immobilized on CM5 chip, IgG1 in solution
# [2] = target: T1, protective antigen of Bacillus …
binder,measurement,setting,value
B1,Kd,[1],0.232 nM
same,koff,[1],0.00103 s⁻¹
same,kon,[1],4.46e+06 M⁻¹ s⁻¹
same,IC50 (read off the curve),[2],~0.1 micrograms/mL
